Experiment: xn = mol fraction of the nth substance listed
Conditions: 100 kPa

O=S(=O)(F)[N-]S(=O)(=O)F.[Li+] + CC[n+]1ccn(C)c1.O=S(=O)(F)[N-]S(=O)(=O)F
Conditions	electrical conductivity [S/m]	mass density [kg/m3]	viscosity [mPa·s]
268 K, x1 = 0.1	0.41	–	–
268 K, x1 = 0.3	0.18	–	–
278 K, x1 = 0.1	0.64	1488	53.7
278 K, x1 = 0.2	0.48	1521	81
278 K, x1 = 0.4	0.17	1598	252.1
288 K, x1 = 0.1	0.92	1478	35.8
288 K, x1 = 0.3	0.49	1547	81.3
288 K, x1 = 0.4	0.29	1588	141.9
298 K, x1 = 0.1	1.26	1469	25.3
298 K, x1 = 0.2	1.01	1501	36.3
298 K, x1 = 0.3	0.72	1538	53.1
298 K, x1 = 0.4	0.46	1578	87.4
308 K, x1 = 0.1	1.63	1460	18.5
318 K, x1 = 0.1	2.07	1451	14.1
318 K, x1 = 0.2	1.73	1481	19.3
318 K, x1 = 0.4	0.9	1557	40.1
328 K, x1 = 0.1	2.57	1441	11
328 K, x1 = 0.2	2.18	1471	14.8
328 K, x1 = 0.3	1.68	1508	20
328 K, x1 = 0.4	1.19	1547	29
338 K, x1 = 0.1	3.07	1432	8.8
338 K, x1 = 0.2	2.66	1460	11.5
338 K, x1 = 0.3	2.09	1498	15.4
348 K, x1 = 0.1	3.64	1423	7.1
348 K, x1 = 0.2	3.15	1450	9.2
348 K, x1 = 0.3	2.52	1488	12.2
358 K, x1 = 0.1	4.25	1414	5.9
358 K, x1 = 0.2	3.69	1440	7.4
358 K, x1 = 0.3	3.03	1478	9.7
358 K, x1 = 0.4	2.28	1515	13.1
368 K, x1 = 0.1	4.9	–	–
368 K, x1 = 0.2	4.32	–	–
368 K, x1 = 0.3	3.54	–	–
368 K, x1 = 0.4	2.71	–	–

CC[n+]1ccn(C)c1.O=S(=O)(F)[N-]S(=O)(=O)F + O=S(=O)(F)[N-]S(=O)(=O)F.[Li+]
x2 = 0
Conditions	electrical conductivity [S/m]	viscosity [mPa·s]
268 K	0.58	–
288 K	1.21	26.4
298 K	1.61	–
318 K	2.57	11.1
328 K	3.11	8.9
348 K	4.39	5.9
358 K	5.1	4.9
368 K	5.79	–
378 K	6.71	–
388 K	7.5	–

— a compilation of properties of binary mixtures (doi:10.1021/acs.jpcc.7b02296)
